Data as given in patent US20230364057A1, “BACTERIAL DNA GYRASE INHIBITORS AND METHODS OF USE THEREOF” (THE FLORIDA INTERNATIONAL UNIVERSITY BOARD OF TRUSTEES, priority 2022, published 2023).

By UniProt entry, the sequences of proteins in these tests, tags left out. Residues count along the entry.
UniProt P0AES4, 2-875 limits assumed: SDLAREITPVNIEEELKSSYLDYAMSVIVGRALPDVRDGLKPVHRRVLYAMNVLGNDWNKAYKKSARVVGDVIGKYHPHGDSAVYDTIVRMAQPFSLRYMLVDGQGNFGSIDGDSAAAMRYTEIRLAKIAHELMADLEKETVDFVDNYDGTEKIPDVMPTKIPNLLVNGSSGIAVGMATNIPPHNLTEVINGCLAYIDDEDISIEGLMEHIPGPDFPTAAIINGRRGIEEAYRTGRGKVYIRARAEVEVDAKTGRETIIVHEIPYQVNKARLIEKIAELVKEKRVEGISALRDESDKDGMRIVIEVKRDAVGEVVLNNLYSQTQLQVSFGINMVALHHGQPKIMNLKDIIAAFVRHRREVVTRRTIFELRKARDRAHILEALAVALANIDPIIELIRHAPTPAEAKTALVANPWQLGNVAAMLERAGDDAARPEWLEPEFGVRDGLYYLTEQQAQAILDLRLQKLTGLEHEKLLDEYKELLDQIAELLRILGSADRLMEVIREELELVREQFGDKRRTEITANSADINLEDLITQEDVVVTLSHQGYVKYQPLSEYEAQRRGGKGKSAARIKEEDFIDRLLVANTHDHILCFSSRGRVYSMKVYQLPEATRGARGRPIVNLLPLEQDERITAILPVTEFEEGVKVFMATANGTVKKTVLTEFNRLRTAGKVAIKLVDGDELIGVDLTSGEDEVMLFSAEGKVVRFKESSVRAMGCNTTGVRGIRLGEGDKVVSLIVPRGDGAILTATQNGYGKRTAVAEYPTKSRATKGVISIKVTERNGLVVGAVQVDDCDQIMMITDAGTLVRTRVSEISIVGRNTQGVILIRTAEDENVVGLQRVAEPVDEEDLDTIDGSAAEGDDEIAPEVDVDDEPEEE

Target: E. coli DNA gyrase (Escherichia coli (strain K12), UniProt P0AES4+P0AES6)
Experiment: Agarose gel-based DNA gyrase inhibition assay
Assay type: biochemical

N/N=C1\c2ccccc2C(=O)C1C(=O)C(c1ccccc1)c1ccccc1 (centres unmarked)
inhibition of E. coli DNA gyrase activities (50 µM of compounds): inhibited
inhibition of E. coli DNA gyrase activities (200 µM of compounds): completely inhibited
